Target: T1, Serine racemase (Homo sapiens) (UniProt Q9GZT4)
T1 sequence (whole entry): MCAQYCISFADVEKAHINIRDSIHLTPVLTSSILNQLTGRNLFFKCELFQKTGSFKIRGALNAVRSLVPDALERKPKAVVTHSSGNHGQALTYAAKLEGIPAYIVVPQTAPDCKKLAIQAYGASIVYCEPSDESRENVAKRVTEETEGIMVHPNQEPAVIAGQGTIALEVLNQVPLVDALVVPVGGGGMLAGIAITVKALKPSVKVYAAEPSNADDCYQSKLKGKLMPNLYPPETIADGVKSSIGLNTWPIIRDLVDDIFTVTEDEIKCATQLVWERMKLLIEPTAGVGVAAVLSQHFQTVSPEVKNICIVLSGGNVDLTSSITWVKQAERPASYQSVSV
Test: Inhibition of hexa-His-tagged purified human recombinant serine racemase expressed in Escherichia coli BL21 Codonplus (DE3)-RIL cells assessed as reduction in beta-elimination of L-serine at 1.2 mM by spectrophotomtery

O=[N+]([O-])C(=C1N[C@H](O)[C@@H](O)N1)[N+](=O)[O-]
inhibition: 0%

From ChEMBL document CHEMBL3616404, “Expanding the chemical space of human serine racemase inhibitors” (Bioorg Med Chem Lett, 2015)
